{"source": "paper PMC2965767", "about": "“Identification and Genome-Wide Prediction of DNA Binding Specificities for the ApiAP2 Family of Regulators from the Malaria Parasite”", "key": {"[1]": {"tested_on": "PF10_0075_D3 (AP2 domain 3) (Plasmodium falciparum)", "assay": "EMSA", "details": "LightShift EMSA buffer, 2.5% glycerol, 5 mM MgCl2, 10 mM EDTA, 50 mM KCl, 0.05% NP-40, 50 ng/uL poly(dI-dC), 10 fmol biotin probe, 50 or 250x competitor; recombinant protein; protein details: N-terminal GST (pGEX-4T1); label: 5' biotin"}, "[2]": {"tested_on": "PF11_0091 AP2 domain (Plasmodium falciparum)", "assay": "EMSA", "details": "LightShift EMSA buffer, 2.5% glycerol, 5 mM MgCl2, 10 mM EDTA, 50 mM KCl, 0.05% NP-40, 50 ng/uL poly(dI-dC), 10 fmol biotin probe, 50 or 250x competitor; recombinant protein; protein details: N-terminal GST (pGEX-4T1); label: 5' biotin"}, "[3]": {"molecular_target": "T1, PFD0985w_D2 (AP2 domain 2) (Plasmodium falciparum) (UniProt Q8I1N6)", "T1 sequence (looked up, limits assumed)": "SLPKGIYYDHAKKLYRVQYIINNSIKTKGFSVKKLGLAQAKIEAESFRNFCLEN", "assay": "EMSA", "details": "no binding in absence of either motif (data not shown); LightShift EMSA buffer, 2.5% glycerol, 5 mM MgCl2, 10 mM EDTA, 50 mM KCl, 0.05% NP-40, 50 ng/uL poly(dI-dC), 10 fmol biotin probe, 50 or 250x competitor; recombinant protein; protein details: N-terminal GST (pGEX-4T1); label: 5' biotin"}, "[4]": {"molecular_target": "T2, PFL1900w DLD (PF3D7_1239200, AP2 domain transcription factor, putative) (Plasmodium falciparum) (UniProt Q8I531)", "T2 sequence (looked up)": "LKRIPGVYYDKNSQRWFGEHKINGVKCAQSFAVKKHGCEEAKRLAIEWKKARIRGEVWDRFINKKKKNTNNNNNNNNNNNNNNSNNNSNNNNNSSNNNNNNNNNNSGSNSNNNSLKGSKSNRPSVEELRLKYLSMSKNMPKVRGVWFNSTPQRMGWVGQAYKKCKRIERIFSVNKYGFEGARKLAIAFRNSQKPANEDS", "assay": "EMSA", "details": "5 mM MgCl2 with 10 mM EDTA; LightShift buffer, 2.5% glycerol, 50 mM KCl, 0.05% NP-40, 50 ng/uL poly(dI-dC); room temperature, 20 min; purified recombinant protein; residues 2149-2347; protein details: N-terminal GST (pGEX-4T1), kept; label: 5' biotin"}, "[5]": {"tested_on": "PFL1900w_DLD (domain-linker-domain) (Plasmodium falciparum)", "assay": "EMSA", "details": "LightShift EMSA buffer, 2.5% glycerol, 5 mM MgCl2, 10 mM EDTA, 50 mM KCl, 0.05% NP-40, 50 ng/uL poly(dI-dC), 10 fmol biotin probe, 50 or 250x competitor, recombinant protein, protein details: N-terminal GST (pGEX-4T1)"}, "[6]": {"tested_on": "PFL1900w_DLD (domain-linker-domain) (Plasmodium falciparum)", "assay": "competition with a labelled probe", "details": "unlabeled, does not compete with secondary motif probe; LightShift EMSA buffer, 2.5% glycerol, 5 mM MgCl2, 10 mM EDTA, 50 mM KCl, 0.05% NP-40, 50 ng/uL poly(dI-dC), 10 fmol biotin probe, 50 or 250x competitor; recombinant protein; protein details: N-terminal GST (pGEX-4T1); label: 5' biotin (probe), unlabeled as competitor"}, "[7]": {"molecular_target": "T3, PF13_0235 D1ext (PF3D7_1342900, AP2 domain transcription factor, putative) (Plasmodium falciparum) (UniProt C0H5G5)", "T3 sequence (looked up, limits assumed)": "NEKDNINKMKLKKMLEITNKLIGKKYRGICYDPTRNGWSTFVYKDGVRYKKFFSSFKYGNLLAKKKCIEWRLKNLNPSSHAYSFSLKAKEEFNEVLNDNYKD", "assay": "EMSA", "details": "5 mM MgCl2 with 10 mM EDTA; LightShift buffer, 2.5% glycerol, 50 mM KCl, 0.05% NP-40, 50 ng/uL poly(dI-dC); room temperature, 20 min; purified recombinant protein; protein details: N-terminal GST (pGEX-4T1), kept; label: 5' biotin"}, "[8]": {"tested_on": "PF13_0235_D1 (AP2 domain 1) (Plasmodium falciparum)", "assay": "EMSA", "details": "LightShift EMSA buffer, 2.5% glycerol, 5 mM MgCl2, 10 mM EDTA, 50 mM KCl, 0.05% NP-40, 50 ng/uL poly(dI-dC), 10 fmol biotin probe, 50 or 250x competitor, recombinant protein, protein details: N-terminal GST (pGEX-4T1), label: 5' biotin"}}, "note": "For some of these results: The comparison behind a weaker result is the experiment's own reference, which may not be listed here. For some of these results: Where a protein sequence is shown, tags need not be part of it. For some of these results: The exact form of at least one protein or probe is not confirmed. For some of these results: A negative result means that nothing was seen under these conditions. For some of these results: At least one verdict rests on a figure or table, not on a statement of the authors."}
{"sequence": "AAATTGTGTAAATTCATATTCGATAAAGTGCATTAATTTTATTTATCAATTGTAAACATA (double strand) [msp1]", "values": [{"measurement": "binding result", "setting": "[1]", "value": "binds"}]}
{"sequence": "AAGCAAATAAGATATTCCAAAAAAAAGTATTCTAATGTGTACTAATAAACCTTTATATAA (double strand) [gbp130]", "values": [{"measurement": "binding result", "setting": "[2]", "value": "binds"}]}
{"sequence": "AATATTATAATAGTCGTAGCCATCAATAAAAAAAAATGGTAATATAGATTTTCGTTTATATT (double strand) [No motif]", "values": [{"measurement": "binding result", "setting": "[3]", "value": "no binding"}]}
{"sequence": "AATATTATAATAGTCGTAGCCATCAATACCGCGGTATGGTAATATAGATTTTCGTTTATATT (double strand) [PFL1900w_DLD-3 (motif rank)]", "values": [{"measurement": "binding result", "setting": "[4]", "value": "binds more weakly"}]}
{"sequence": "AATATTATAATAGTCGTAGCCATCAATACCGCGGTATGGTAATATAGATTTTCGTTTATATT (double strand) [PFL1900w_DLD-3°]", "values": [{"measurement": "binding result", "setting": "[5]; shifted (data not shown), lower preference than secondary, label: 5' biotin (probe), unlabeled as competitor", "value": "binds more weakly"}, {"measurement": "binding result", "setting": "[6]", "value": "no binding"}]}
{"sequence": "AATATTATAATAGTCGTAGCCATCAATACGACATCATGGTAATATAGATTTTCGTTTATATT (double strand) [PFL1900w_DLD-2°]", "values": [{"measurement": "binding result", "setting": "[5]; preferred over tertiary motif, label: 5' biotin (probe), unlabeled as competitor", "value": "binds"}]}
{"sequence": "AATATTATAATAGTCGTAGCCATCAATTCTACAAAATGGTAATATAGATTTTCGTTTATATT (double strand) [PFL1900w_DLD-1°]", "values": [{"measurement": "binding result", "setting": "[5]; data not shown, label: 5' biotin", "value": "binds"}]}
{"sequence": "ATTAATTTAATATGTACGCAAGGTGCACACTGGTGCATTAAAAAAAAAATATATATTAAT (double strand) [rhopH3]", "values": [{"measurement": "binding result", "setting": "[1]", "value": "binds"}]}
{"sequence": "TCAACAATTATTATATAATTAATTAGAAGTGCATTAGGTAACAACTGTCGAATAAATATAT (double strand) [msp10]", "values": [{"measurement": "binding result", "setting": "[1]", "value": "binds"}]}
{"sequence": "TTTATATTATATATATATAATAATTTAGGCCCCGTGCCCTTATTTTGATTTTTTTTTTTTT (double strand) [hsp70]", "values": [{"measurement": "binding result", "setting": "[7]", "value": "binds more weakly"}, {"measurement": "binding result", "setting": "[8]; binds, similar to hsp86 with one G-box", "value": "binds more weakly"}]}
{"sequence": "TTTTAAAAAAAAAAAAAAAGCCCCGCGGAAAGGGGCCATTGGATATATATTTAGTATTCC (double strand) [hsp86]", "values": [{"measurement": "binding result", "setting": "[8]", "value": "binds"}]}
{"sequence": "TTTTAAAAAAAAAAAAAAAGCCCCGCGGAAATATACCATTGGATATATATTTAGTATTCC (double strand) [hsp86-MUT2]", "values": [{"measurement": "binding result", "setting": "[8]; severely reduced", "value": "binds more weakly"}]}
{"sequence": "TTTTAAAAAAAAAAAAAAAGTATAGCGGAAAGGGGCCATTGGATATATATTTAGTATTCC (double strand) [hsp86-MUT1]", "values": [{"measurement": "binding result", "setting": "[8]; severely reduced", "value": "binds more weakly"}]}
{"sequence": "TTTTAAAAAAAAAAAAAAAGTATAGCGGAAATATACCATTGGATATATATTTAGTATTCC (double strand) [hsp86-MUT3]", "values": [{"measurement": "binding result", "setting": "[8]; both G-boxes removed: binding eliminated", "value": "no binding"}]}
